## Potato spindle tuber viroid, stem 3: variant abundance in plants

Source: Wu et al. 2024 (doi:10.1371/journal.ppat.1012142), supplementary data.

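A pool of all variants was put on leaves of three Nicotiana benthamiana plants. Samples came from the inoculated region at 5 days, the leaf margin at 10 and upper systemic leaves at 12.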

PSTVd intermediate strain, stem 3: wild type GUGGUUCCGGAACCGC, pool pattern GUGGUUCCGNANNCNN; upper and lower strand joined, each 5' to 3', the first 8 letters being the upper strand.

Values are reads per thousand in the sample; higher means more abundant, 0 means not found. Each site shows the three plants. "Pool" is the share in the plasmid pool used as inoculum, on the same scale. The inoculated region was read from the minus strand, the other sites from the plus strand. IR is the inoculated region, LM the leaf margin, Sys the systemic leaves.

sequence | pool | IR | LM | Sys
GUGGUUCCGUAUUCGU | 0.877 | 1.52 / 1.34 / 2.32 | 0.708 / 0 / 0.650 | 0 / 0 / 0
GUGGUUCCGUAUUCUA | 0.954 | 0.373 / 0.431 / 0.324 | 0 / 0.0636 / 0 | 0 / 0 / 0
GUGGUUCCGUAUUCUC | 0.754 | 0.480 / 0.453 / 0.189 | 0.0283 / 0 / 0 | 0 / 0 / 0
GUGGUUCCGUAUUCUG | 2.39 | 1.28 / 1.36 / 1.41 | 0 / 0.0318 / 0 | 0.298 / 0.0738 / 0.146
GUGGUUCCGUAUUCUU | 1.80 | 1.63 / 1.36 / 1.84 | 0.0283 / 0.0318 / 0 | 0.0186 / 0 / 0
GUGGUUCCGUAUUGGU | 0.400 | 1.15 / 0.668 / 0.811 | 0.368 / 0 / 0.289 | 0.168 / 0.0369 / 0
GUGGUUCCGUUAUCCA | 0.0154 | 0 / 0 / 0 | 0 / 0 / 0 | 0 / 0 / 0
GUGGUUCCUGAACAGC | 0.0154 | 0.0267 / 0 / 0 | 0 / 0.0318 / 0.0722 | 0.0186 / 0.0184 / 0
GUGGUUCCUGAACCGC | 0.185 | 0.693 / 0.582 / 1.00 | 0.822 / 1.37 / 1.01 | 1.03 / 0.775 / 0.876
GUGGUUCCUGUACCUC | 0.0154 | 0 / 0 / 0 | 0 / 0 / 0 | 0 / 0 / 0
GUGGUUCGGGAUCCGC | 0.0154 | 0 / 0 / 0 | 0 / 0 / 0 | 0 / 0 / 0
GUGGUUCGGUAUUCGU | 0.0154 | 0 / 0 / 0 | 0 / 0 / 0 | 0 / 0 / 0
GUGGUUCUGUACCCCU | 0.0154 | 0 / 0 / 0 | 0 / 0 / 0 | 0 / 0 / 0
GUGGUUGCGUACGCCG | 0.0154 | 0 / 0 / 0 | 0 / 0 / 0 | 0 / 0 / 0
GUGGUUUCGGACACUU | 0.0154 | 0 / 0 / 0 | 0 / 0 / 0 | 0 / 0 / 0
GUGUUUAGGGAAAAGA | 0.0154 | 0 / 0 / 0 | 0 / 0 / 0 | 0 / 0 / 0
GUGUUUCCGAAUACGG | 0.0154 | 0 / 0 / 0 | 0 / 0 / 0 | 0 / 0 / 0
GUGUUUCCGCACUCAU | 0.0154 | 0 / 0 / 0 | 0 / 0 / 0 | 0 / 0 / 0
GUGUUUCCGGAACCGA | 0.0154 | 0.0267 / 0.0216 / 0 | 0.0283 / 0 / 0 | 0.0373 / 0.0553 / 0
GUGUUUCCGGAUACGU | 0.0154 | 0 / 0 / 0 | 0 / 0 / 0 | 0 / 0 / 0
GUGUUUCCGUAACCGA | 0.0154 | 0 / 0 / 0 | 0 / 0 / 0 | 0 / 0 / 0
GUUGUUCCGAAAUCCA | 0.0154 | 0 / 0 / 0 | 0 / 0 / 0 | 0 / 0 / 0
GUUGUUCCGAAGGCCG | 0.0154 | 0 / 0 / 0 | 0 / 0 / 0 | 0 / 0 / 0
GUUGUUCCGCAGUCCG | 0.0154 | 0 / 0 / 0 | 0 / 0 / 0 | 0 / 0 / 0
GUUGUUCCGGAGCCCC | 0.0154 | 0 / 0 / 0 | 0 / 0 / 0 | 0 / 0 / 0
GUUGUUCCGGAGGCGG | 0.0154 | 0 / 0 / 0.0270 | 0 / 0 / 0 | 0 / 0 / 0
GUUGUUCCGGAUACCC | 0.0154 | 0 / 0 / 0 | 0 / 0 / 0 | 0 / 0 / 0
GUUGUUCCGGAUCCCG | 0.0154 | 0 / 0 / 0 | 0 / 0 / 0 | 0 / 0 / 0
GUUGUUCCGGAUGCGA | 0.0154 | 0 / 0 / 0 | 0 / 0 / 0 | 0 / 0 / 0
GUUGUUCCGUAACCGC | 0.0154 | 0.0267 / 0 / 0.0270 | 0 / 0 / 0 | 0.112 / 0.0369 / 0.0243
GUUGUUCCGUAAUCGC | 0.0154 | 0 / 0 / 0 | 0 / 0 / 0 | 0 / 0 / 0
GUUGUUCCUGAACCGC | 0.0154 | 0.0800 / 0 / 0 | 0.0283 / 0.0636 / 0 | 0.0373 / 0.0184 / 0.0243
UUGGUUCCGAAGACAG | 0.0154 | 0 / 0 / 0 | 0 / 0 / 0 | 0 / 0 / 0
UUGGUUCCGAAGGCGC | 0.0154 | 0 / 0 / 0 | 0 / 0 / 0 | 0 / 0 / 0
UUGGUUCCGUACGCUG | 0.0154 | 0 / 0 / 0 | 0 / 0 / 0 | 0 / 0 / 0
UUGUUUCCGGACUCCA | 0.0154 | 0 / 0 / 0 | 0 / 0 / 0 | 0 / 0 / 0

Excerpt, the final 3 entries:

{"sequence": "UUGGUUCCGAAGGCGC", "pool": "0.0154", "IR": "0 / 0 / 0", "LM": "0 / 0 / 0", "Sys": "0 / 0 / 0"}
{"sequence": "UUGGUUCCGUACGCUG", "pool": "0.0154", "IR": "0 / 0 / 0", "LM": "0 / 0 / 0", "Sys": "0 / 0 / 0"}
{"sequence": "UUGUUUCCGGACUCCA", "pool": "0.0154", "IR": "0 / 0 / 0", "LM": "0 / 0 / 0", "Sys": "0 / 0 / 0"}

Samples held 27,691 to 54,225 reads, so the smallest values rest on one or two reads. Wild type was 17.3 per thousand in the pool and the most common sequence in every sample (inoculated region 330, 345, 235; leaf margin 794, 766, 816; systemic leaves 830, 792, 869). Sequences that differ at fixed positions probably stem from PCR or sequencing errors, and defective variants can be carried along by functional ones.